Test results reported in PubChem BioAssay AID1549 (Sanford-Burnham Center for Chemical Genomics, 2009).
Active and inactive are the calls of the source. No rule for the calls is given here.

Biological target: Influenza A virus M2 proton channel (A/TW/4845/1999 H1N1)
Assay: NMR binding screen, influenza A virus M2 proton channel, Kd (AID 1549)
Conditions: M2 protein

For `Cc1c2non([O-])c-2c(C)[n+](=O)[n+]1[O-]`, the Kd was inactive: > 4 mM.

With `C[C@H]1C(=O)O[C@@H]2CCN3CC=C(COC(=O)[C@](C)(O)[C@]1(C)O)[C@H]23` the Kd was inactive: > 4 mM.
